{"source": "paper PMC9027083", "about": "(International Journal of Molecular Sciences, 2022)", "binders": {"B1": {"name": "1A1D-2 Fab WT (Fab, V domains shown)", "VH": "EVQLQQSGAELVKPGASVKLSCTASGFNIKDTYMHWVKQRPEQGLEWIGRIDPANGYSKYDPKFQGKATITADTSSNAAYLQLSSLTSEDTAVYFCARDYEGFAYWGQGTLVTVSS", "VL": "DIVLTQSPASLAVSLGQRATISCRASESVVRYGNSFMHWYQQKPGQPPKLLIYRASSLESGIPTRFSGSGSRTDFTLTINPVEADDVATYYCQQTNVDPWAFGGGTKLEIK", "notes": "also called 1A1D-2 WT"}}, "molecular_target": "envelope protein domain III, dengue virus (Dengue virus 2, strain Thailand/16681/84, UniProt P29990, strain)", "assay": "SPR", "details": "both partners purified", "data": [{"binder": "B1", "values": [{"measurement": "Kd", "value": 440, "unit": "nM"}, {"measurement": "koff", "value": 0.0471, "unit": "s⁻¹"}, {"measurement": "kon", "value": 107000, "unit": "M⁻¹ s⁻¹"}]}]}
